Compound potency records, mixed from different reports. Data source: NIAID ChemDB in PubChem.

Common to all: growth or infection tests; organism: Plasmodium falciparum; endpoint: EC50

ECn: concentration that inhibits the pathogen or its effect by n%. Lines come from different laboratories, so protocols vary. Blank or dashed fields: not listed here.

| SMILES | strain or isolate | mutations | method | result |
|---|---|---|---|---|
| C[C@H]1[C@@H](OC(=O)CCC(=O)O)O[C@@H]2O[C@@]3(C)CC[C@H]4[C@H](C)CC[C@@H]1[C@@]24OO3 | NF54 | - | - | 0.004 µM |
| C=C1CN2CCC34c5ccccc5N5C=C([C@H]6CC7C8=C(CCC7C/C6=C/C)c6ccccc6C8)[C@@H](O)[C@@H]([C@H]53)[C@H]1C[C@H]24 | 3D7 | - | - | 0.861 µg/mL |
| COc1c(O)cc2oc(-c3ccc(O)c(O)c3)cc(=O)c2c1O | - | - | - | 3.2 µg/mL |
| C=C[C@H]1CN2CC[C@H]1C[C@H]2[C@H](O)c1ccnc2ccc(OC)cc12 | D10 | - | - | 0.215 µM |
| CS[C@@]12C[C@H]3C(=O)C=C[C@H](O)[C@H]3N1C(=O)[C@]1(SC)C[C@H]3C(=O)C=C[C@H](O)[C@H]3N1C2=O | 3D7 | - | SYBR Green | 1.2 µM |
| Cc1ccc(N=C2SCC(O)=C2C(=O)O)cc1C | 3D7 | - | - | >20 µM |
| OCCNc1nc(NCCNc2ccnc3cc(Cl)ccc23)nc(N2CCCCC2)n1 | W2 | - | - | 0.49 µM |
| C[n+]1c2ccccc2c(NC2CCNCC2)c2[nH]c3ccccc3c21.[Cl-] | K1 | - | - | 0.1 µM |
| O=C(O)c1cn(C2CC2)c2cc(N3CCNCC3)c(F)cc2c1=O | 3D7 | - | fluorescence | 23.1 µM |
| COc1ccc2nccc([C@@H](O)C3CC4CCN3CC4/C=C/c3ccc4ccccc4c3)c2c1 | HB3 | - | - | >0.5 µM |
| COc1cc(/C=C2\CC/C(=C\c3ccc(OCCn4ccnc4C)c(OC)c3)C2=O)ccc1OCCn1ccnc1C | D6 | - | - | 2.01 µM |
| OCCCCNc1nc(NCCCNc2ccnc3cc(Cl)ccc23)nc(N2CCOCC2)n1 | W2 | - | - | 1.12 µM |
| CC[C@H](CC[C@@H](C)[C@H]1CC[C@H]2[C@@H]3CC=C4C[C@@H](O)CC[C@]4(C)[C@H]3CC[C@]12C)C(C)C | D10 | - | LDH | >200 µM |
| C[C@H]1[C@@H](OC(=O)CCC(=O)O)O[C@@H]2O[C@@]3(C)CC[C@H]4[C@H](C)CC[C@@H]1[C@@]24OO3 | RSA11 | - | - | 0.003 µM |
| O=C1N2[C@@H]3C=CC=C[C@@H]3C[C@]23SS[C@]12C[C@H]1C=CC=C[C@H]1N2C3=O | 3D7 | - | SYBR Green | 3.6 µM |
| Oc1ccc(CNNC(=S)NC2CCCCC2)cc1 | Dd2 | - | - | >50 µM |
| COc1cc(O)c2c(=O)c(O)c(-c3ccc(O)c(O)c3)oc2c1 | Clinical isolates | - | - | 27.04 µM |
| CCN(CC)CCCC(C)Nc1ccnc2cc(Cl)ccc12 | W2 | - | - | 0.43 µM |
| CN1CCc2cc3c(cc2[C@H]1[C@H]1OC(=O)c2c1ccc1c2OCO1)OCO3 | K1CB1 | - | - | >10 µg/mL |
| C/C=C(\C)C(=O)O[C@@H]1C/C(CO)=C/C[C@@H](O)/C=C(/C)[C@H]2OC(=O)[C@H](C)[C@@H]21 | - | - | - | >5 µg/mL |
| C/C=C1/CN2CCc3c([nH]c4ccccc34)C2C[C@@H]1C1=CN2c3ccccc3C34CCN5CC6=CCO[C@@H]1[C@@H]([C@H]23)[C@H]6C[C@H]54 | W2 | - | - | 0.326 µg/mL |
| COc1cc(/C=C2\CC/C(=C\c3ccc(OCCCn4ccnc4)c(OC)c3)C2=O)ccc1OCCCn1ccnc1 | D6 | - | - | 0.53 µM |
| COc1ccc(NC(=O)C2C(C(=O)O)[C@@H]3CC[C@H]2O3)cc1 | D6 | - | - | >500 µM |
| CCO[C@H]1O[C@@H]2OC3(C)CC[C@H]4[C@H](C)CC[C@@H]([C@H]1C)[C@@]24OO3 | 3D7 | - | - | 0.01 µg/mL |
| COc1cc2c(cc1O)[C@@H]1Cc3ccc(OC)c(O)c3CN1CC2 | TM4/8.2 | - | - | 1.78 µg/mL |
| Cc1cccc(OCCNC(=O)c2ccccc2O)c1 | Dd2 | - | - | 7.9 µM |
| CCOC(=O)c1cn(CC(F)(F)F)c2ccc3nc(-c4ccc(F)cc4)c(-c4ccc(F)cc4)nc3c2c1=O | W2 | - | fluorescence | 3.92 µM |
| O=C(CC1CCC2(CC1)OOC1(OO2)C2CC3CC(C2)CC1C3)N1CCC(N2CCOCC2)CC1 | 3D7 | - | - | 0.0025 µM |
| C[C@@H]1CC[C@H]2[C@@H](C)C(=O)O[C@@H]3OC4(C)CC[C@@H]1[C@]32OO4 | GNF-Pf4492R-1 | GNF-Pf4492-resistant PfATP4 A211T | SYBR Green / fluorescence | 0.0182 µM |
| C[n+]1c2ccccc2cc2[nH]c3ccccc3c21.O=S(=O)([O-])C(F)(F)F | 3D7 | - | - | 0.91 µM |
| O=C(CN1C(=O)SC(=Cc2cccc(OC(F)(F)F)c2)C1=O)N1CCN(c2ccccc2)CC1 | W2 | Chloroquine-resistant | fluorescence | >10 µM |
| O=C(CC1CCC2(CC1)OOC1(OO2)C2CC3CC(C2)CC1C3)N1CCC(N2CCCC2)CC1 | K1 | - | - | 0.0009 µM |
| C=C(NC(=O)C(=C)NC(=O)c1csc(C2=N[C@@H]3c4csc(n4)[C@H]4NC(=O)c5csc(n5)[C@H]([C@](C)(O)[C@@H](C)O)NC(=O)C5CSC(=N5)/C(=C/C)NC(=O)[C@H]([C@@H](C)O)NC(=O)c5csc(n5)[C@]3(CC2)NC(=O)C(C)NC(=O)C(=C)NC(=O)C(C)NC(=O)C(C(C)CC)NC2C=Cc3c([C@H](C)O)cc(nc3[C@H]2O)C(=O)O[C@@H]4C)n1)C(N)=O | NF54 | - | - | 0.3877 µM |
| OCCCNc1nc(NCCNc2ccnc3cc(Cl)ccc23)nc(N2CCOCC2)n1 | D6 | - | - | 0.67 µM |
| CS[C@@]12C[C@H]3C=CC=C[C@H]3N1C(=O)[C@]1(SC)C[C@H]3C=CC=C[C@H]3N1C2=O | 3D7 | - | SYBR Green | >50 µM |
| OCCCNc1nc(NCCCNc2ccnc3cc(Cl)ccc23)nc(N2CCOCC2)n1 | D6 | - | - | 0.63 µM |
| C[C@H]1[C@H](C)CC[C@]2(C(=O)O)CC[C@]3(C)C(=CC[C@@H]4[C@@]5(C)CC[C@H](O)C(C)(C)[C@@H]5CC[C@]43C)[C@H]12 | D10 | - | LDH | >200 µM |
| CCOC(=O)C1=C(O)CSC1=Nc1ccc(Br)cc1C | Dd2 | - | - | >20 µM |
| Cc1cccc(OCCNC(=O)c2c(Cl)ccc3cc(C)cnc23)c1 | Dd2 | - | - | >50 µM |
| Cc1ccc(C2OOC(c3ccc(CO)cc3)OO2)cc1 | W2 | - | LDH | 2.24 µM |
| Cc1ccc(NC2=C(ON)C(=O)CS2)cc1C | Dd2 | - | - | >20 µM |
| CCN(CC)CCCC(C)Nc1ccnc2cc(Cl)ccc12 | FCM29 | - | - | 0.09 µg/mL |
| Cc1c2ccncc2c(C)c2c1[nH]c1ccccc12 | 3D7 | - | - | 0.35 µM |
| CC(=O)C1C(=O)C=C(C)OC1=O.CCc1nc(N)nc(N)c1-c1ccc(Cl)cc1 | NF54 | - | LDH | 0.00071 µg/mL |
| O=C1C=C[C@H](O)[C@@H]2[C@H]1C[C@]13SS[C@@]4(C[C@H]5C(=O)C=C[C@H](O)[C@H]5N4C1=O)C(=O)N23 | 3D7 | - | SYBR Green | 4.5 µM |
| OCCNc1nc(NCCCCNc2ccnc3cc(Cl)ccc23)nc(N2CCCCC2)n1 | D6 | - | - | 0.19 µM |
| O=C1[C@@H]2C[C@H]3C=CC=C[C@H]3N2C(=O)[C@@H]2C[C@H]3C=CC=C[C@H]3N12 | 3D7 | - | SYBR Green | >50 µM |
| C[C@H]1[C@@H](OC(=O)CCC(=O)O)O[C@@H]2O[C@@]3(C)CC[C@H]4[C@H](C)CC[C@@H]1[C@@]24OO3 | NF54 | - | - | 0.0035 µM |
| O[C@H](c1cc(C(F)(F)F)nc2c(C(F)(F)F)cccc12)[C@@H]1CCCCN1 | - | - | schizont maturation | 0.126 µM |
| Cc1cccc(NCc2cc3ccccc3[nH]c2=O)c1 | Dd2 | - | - | >50 µM |
| C[C@@H]1CC[C@H]2[C@@H](C)C(=O)O[C@@H]3OC4(C)CC[C@@H]1[C@]32OO4 | 3D7 | - | LDH / absorbance | 0.0067 µg/mL |
| CN1CCC(N2CCN(C(=O)CC3CCC4(CC3)OOC3(OO4)C4CC5CC(C4)CC3C5)CC2)CC1 | 3D7 | - | - | 0.006 µM |
| O=C(CN1C(=O)SC(=Cc2ccc(F)cc2)C1=O)N1CCN(c2ccccc2)CC1 | W2 | Chloroquine-resistant | fluorescence | >10 µM |
| Cc1cccc(OCCNC(=O)c2ccc([N+](=O)[O-])cc2Cl)c1 | Dd2 | - | - | 50 µM |
| COc1cc(OC)c(C=C2SC(=O)N(CC(=O)N3CCN(c4cccc(Cl)c4)CC3)C2=O)c(OC)c1 | W2 | Chloroquine-resistant | fluorescence | 0.55 µM |
| O[C@H](c1cc(C(F)(F)F)nc2c(C(F)(F)F)cccc12)[C@@H]1CCCCN1 | D10 | - | - | 0.038 µM |

6 of the rows above, restated:

CS[C@@]12C[C@H]3C=CC=C[C@H]3N1C(=O)[C@]1(SC)C[C@H]3C=CC=C[C@H]3N1C2=O ; strain or isolate: 3D7 ; method: SYBR Green ; result: >50 µM
C[C@H]1[C@H](C)CC[C@]2(C(=O)O)CC[C@]3(C)C(=CC[C@@H]4[C@@]5(C)CC[C@H](O)C(C)(C)[C@@H]5CC[C@]43C)[C@H]12 ; strain or isolate: D10 ; method: LDH ; result: >200 µM
O=C1[C@@H]2C[C@H]3C=CC=C[C@H]3N2C(=O)[C@@H]2C[C@H]3C=CC=C[C@H]3N12 ; strain or isolate: 3D7 ; method: SYBR Green ; result: >50 µM
COc1cc(OC)c(C=C2SC(=O)N(CC(=O)N3CCN(c4cccc(Cl)c4)CC3)C2=O)c(OC)c1 ; strain or isolate: W2 ; mutations: Chloroquine-resistant ; method: fluorescence ; result: 0.55 µM
COc1cc(/C=C2\CC/C(=C\c3ccc(OCCCn4ccnc4)c(OC)c3)C2=O)ccc1OCCCn1ccnc1 ; strain or isolate: D6 ; result: 0.53 µM
C[C@@H]1CC[C@H]2[C@@H](C)C(=O)O[C@@H]3OC4(C)CC[C@@H]1[C@]32OO4 ; strain or isolate: 3D7 ; method: LDH / absorbance ; result: 0.0067 µg/mL